Source: patent US20220025003A1 (published 2022)

Target: NS3a (active), Avi-His6-NS3a catalytically active
Test: FRET-based protease inhibition assay; ANR-GST fusion

B1: ANR-GST (His6-ANR-GST) (other)
chain: MHHHHHHGSGTGSGELGRLVYLLDGPGYDPIHSDGTGSSPILGYWKIKGLVQPTRLLLEYLEEKYEEHLYERDEGDKWRNKKFELGLEFPNLPYYIDGDVKLTQSMAIIRYIADKHNMLGGCPKERAEISMLEGAVLDIRYGVSRIAYSKDFETLKVDFLSKLPEMLKMFEDRLCHKTYLNGDHVTHPDFMLYDALDVVLYMDPMCLDAFPKLVCFKKRIEAIPQIDKYLKSSKYIAWPLQGWQATFGGGDHPPKSDLVPR
IC50: < 50 nM
